Anti-infective test results gathered from many reports (values: NIAID ChemDB through PubChem).

Shared fields: cytotoxicity tests; cells: MRC-5; measure: CC50

Blank or dashed fields: not listed here. Two numbers with a dash give a range or band. CCn: concentration that lowers growth or viability of the cells by n%. Rows are shuffled and stem from different studies.

SMILES	method	result
N#Cc1cc2ccncc2c2sc3ccccc3c12	visual reading	196 µg/mL
O=C(O)P(=O)(O)O		830 µM
CC(Oc1ccc2ncccc2c1)C(=O)N/N=C/c1ccc(F)cc1	absorbance	>512 µM
O=c1[nH]c(=S)n([C@@H]2O[C@H](CO)[C@@H](O)[C@@H]2O)cc1I		>518 µM
O=CN(O)CCCP(=O)(O)O	fluorescence	>62 µM
CCCCCCCCCCCCCCCCCCOC[C@@H](O)COP(=O)(O)C(=O)O		395 µM
CC(Oc1ccc2ncccc2c1)C(=O)N/N=C/c1ccc([N+](=O)[O-])cc1	absorbance	>512 µM
Nc1nc2c(ncn2COCCO)c(=O)[nH]1	MTT	>350 µM
N#C/C(=C/c1ccncc1)c1csc2ccccc12	visual reading	>32 µg/mL
CC(Oc1ccc2ncccc2c1)C(=O)N/N=C/c1ccc(Br)cc1	absorbance	>512 µM
O=C(O)P(=O)(O)O		>1000 µM
CCCCCCCCCCCCCCCCCCSC[C@H](O)COP(=O)(O)C(=O)O		320–1000 µM
NC1=Nc2c(ncn2CCCCC(F)(F)P(=O)(O)O)C(=O)C1		>1000 µM
CN(O)C(=O)CCC(c1ccccc1)P(=O)(O)O	fluorescence	>60 µM
O=C1c2ccccc2C(=O)c2c(O)ccc(O)c21		>41.6 µM
NC1=Nc2c(ncn2CCC/C=C/P(=O)(O)O)C(=O)C1		188 µM
Cc1cc(O)c2c(c1)Cc1cc(O)cc(O)c1C2=O		10.1 µM
Cc1ccccc1/C=N/NC(=O)C(C)Oc1ccc2ncccc2c1	absorbance	>512 µM
Cc1cc(O)c2c(c1)C(=O)c1cc(O)cc(O)c1C2=O		9.6 µM
C[C@@H]1O[C@@H](Oc2c(-c3ccc(O)cc3)oc3cc(O)cc(O)c3c2=O)[C@H](OC(=O)/C=C/c2ccc(O)cc2)[C@H](OC(=O)/C=C/c2ccc(O)cc2)[C@H]1O		>40 µM
Cc1cc(O)c2c(c1)C(=O)c1cccc(O)c1C2=O		>39.3 µM
O=c1[nH]c(=S)n([C@H]2C[C@H](O)[C@@H](CO)O2)cc1I		>542 µM
CC(Oc1ccc2ncccc2c1)C(=O)N/N=C/c1ccc(C#N)cc1	absorbance	>512 µM
Cc1cc(O)c2c(c1)/C(=C1\c3cc(C)cc(O)c3C(=O)c3c(O)cc(O)cc31)c1cc(O)cc(O)c1C2=O		3.5 µM
CCCCCCCCSC[C@H](O)COP(=O)(O)C(=O)O		205 µM
O=c1[nH]c(=S)n([C@@H]2O[C@H](CO)[C@@H](O)[C@@H]2O)cc1Br		>590 µM
O=C1c2ccc(O)cc2C(=O)c2ccc(O)cc21		14.2 µM
CC(O)C/C=N/NC(=O)C(C)Oc1ccc2ncccc2c1	absorbance	>512 µM

Again, the opening 3 rows:

| SMILES | method | result |
|---|---|---|
| N#Cc1cc2ccncc2c2sc3ccccc3c12 | visual reading | 196 µg/mL |
| O=C(O)P(=O)(O)O |  | 830 µM |
| CC(Oc1ccc2ncccc2c1)C(=O)N/N=C/c1ccc(F)cc1 | absorbance | >512 µM |